Data on one compound can be found in PubChem BioAssay AID1706 (The Scripps Research Institute Molecular Screening Center, 2009).

The entries are a selection whose mix differs from that of the whole data set. Activity calls are given as the source filed them. Rule as the data show it: active = inhibition above about 12%; inactive = the rest.

In this assay the target is Replicase polyprotein 1ab (Severe acute respiratory syndrome coronavirus) (UniProt P0C6X7). Briefly: blockers of SARS 3CLpro peptide cleavage – biochemical, quenched FRET, primary screen (AID 1706). The note with it: recombinant SARS-CoV 3CLpro, at 6 µM, active compounds read high.
One may read the inhibition as the percentage by which the read-out fell short of the control. Regarding `O=C(OCCN1CCN(CCOCc2ccccc2)CC1)C(O)(c1ccccc1)c1ccccc1`, the inhibition was inactive: 4.23%.
